PSTVd stem 15 mutant pool in Nicotiana benthamiana

Values reported by Wu et al. 2024 (doi:10.1371/journal.ppat.1012142).

PSTVd intermediate strain, stem 15: wild type CUGGAGCGAUCGCUUCGG, pool pattern CUGGAGCGAUNGNNUNNG; upper and lower strand joined, each 5' to 3', the first 9 letters being the upper strand.

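Three N. benthamiana plants were inoculated with the whole mutant pool. Progeny were sequenced from the inoculated region (day 5), the margin of the inoculated leaf (day 10) and systemic leaves (day 12).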

Numbers give reads per thousand; 0 = not seen among the reads, higher = more abundant. Each value is the mean of three plants. "Pool" is the share in the plasmid pool used as inoculum, on the same scale. The inoculated region was read from the minus strand, the other sites from the plus strand. IR is the inoculated region, LM the leaf margin, Sys the systemic leaves. Wild type was 10.2 per thousand in the pool and the most common sequence in every sample (inoculated region 285, 367, 312; leaf margin 785, 865, 782; systemic leaves 854, 898, 915). Samples held 36,693 to 63,082 reads, so the smallest values rest on one or two reads. The authors trace changes outside the varied positions to PCR and sequencing errors or to mutation in the plant; presence does not show that a variant is infectious alone.

sequence,pool,IR,LM,Sys
CUGGAGCAAUCGCUUCGG,0.0162,0.137,0.366,0.530
CUGGAGCGAUAGAAUCUG,0.760,0.299,0.0227,0
CUGGAGCGAUAGACUUUG,1.02,0.440,0.0144,0
CUGGAGCGAUAGAGUCAG,0.630,0.288,0.0572,0
CUGGAGCGAUAGAUUAUG,0.646,0.216,0.00528,0
CUGGAGCGAUAGAUUUUG,0.743,0.271,0.00908,0
CUGGAGCGAUAGCAUUAG,0.970,0.320,0.0350,0
CUGGAGCGAUAGCGUUAG,0.614,0.346,0.0282,0
CUGGAGCGAUAGCUUCUG,1.97,1.07,0.0547,0.0206
CUGGAGCGAUAGGAUAGG,0.695,0.283,0.0594,0
CUGGAGCGAUAGGAUGGG,1.03,0.302,0.0435,0
CUGGAGCGAUAGGGUGAG,0.905,0.285,0.0341,0
CUGGAGCGAUAGGUUGAG,0.792,0.206,0.0419,0
CUGGAGCGAUAGUCUAGG,0.824,0.268,0.0229,0
CUGGAGCGAUAUUUUCGG,0.0162,0,0,0
CUGGAGCGAUCACUUCGG,0.339,0.687,0.726,1.03
CUGGAGCGAUCGACUCAG,0.937,0.354,0.0435,0
CUGGAGCGAUCGAUUGGG,0.760,0.330,0.0365,0
CUGGAGCGAUCGAUUUGG,0.937,0.249,0.0334,0
CUGGAGCGAUCGCCUGAG,0.921,0.388,0.0276,0
CUGGAGCGAUCGCGUUGG,0.711,0.284,0.0298,0
CUGGAGCGAUCGGCUCUG,0.711,0.196,0.0251,0
CUGGAGCGAUCGGGUAAG,1.24,0.309,0.0456,0
CUGGAGCGAUCGGGUGCG,1.18,0.406,0.0563,0
CUGGAGCGAUCGGUUGAG,0.986,0.292,0.0367,0
CUGGAGCGAUCGUAUUAG,0.889,1.59,0.571,0
CUGGAGCGAUCGUGUACG,0.792,0.324,0.0260,0
CUGGAGCGAUGGAAUUAG,1.08,0.518,0.0570,0
CUGGAGCGAUGGCAUACG,1.00,0.341,0.0394,0
CUGGAGCGAUGGCAUGUG,0.937,0.259,0.0441,0
CUGGAGCGAUGGGCUAAG,0.921,0.294,0.0356,0
CUGGAGCGAUGGGGUUAG,0.824,0.180,0.0745,0
CUGGAGCGAUGGGUUUAG,0.921,0.279,0.0397,0
CUGGAGCGAUGGUAUUUG,1.00,0.245,0.0663,0
CUGGAGCGAUGGUGUGGG,0.873,0.239,0.0500,0
CUGGAGCGAUGGUUUGAG,0.857,0.286,0.0378,0
CUGGAGCGAUUGAAUUUG,2.18,1.44,0.0636,0
CUGGAGCGAUUGACUACG,0.954,1.21,0.0229,0
CUGGAGCGAUUGCCUACG,0.646,0.314,0.0318,0
CUGGAGCGAUUGCUUUAG,2.41,3.91,0.690,0.720
CUGGAGCGAUUGGUUCUG,0.921,0.301,0.0478,0
CUGGAGCGAUUGUCUAGG,0.889,1.49,0.526,0
CUGUAGCGAUUGGGUUUG,0.0162,0,0,0

A selection of 4 entries from above:

sequence,pool,IR,LM,Sys
CUGGAGCGAUUGGUUCUG,0.921,0.301,0.0478,0
CUGGAGCGAUUGACUACG,0.954,1.21,0.0229,0
CUGGAGCGAUCGUGUACG,0.792,0.324,0.0260,0
CUGGAGCGAUAUUUUCGG,0.0162,0,0,0